Anti-infective test results gathered from many reports (values: NIAID ChemDB through PubChem).

Common to all: whole-cell or culture tests; organism: Hepatitis C virus; read by: replicon; measure: EC50

An empty or dashed field is not shown. ECn: concentration that inhibits the pathogen or its effect by n%. Two numbers with a dash give a range or band. Neighbouring rows are from separate reports.

compound,cell line,strain,result
CCOc1ccc2oc(-c3ccccc3)c(C(=O)NC)c2c1,Huh7,-,>30 µM
CN(C)C(=O)C1=Cc2ccccc2-c2c(C3CCCCC3)c3ccc(C(=O)O)cc3n2C1,Huh7,-,1–10 µM
CNC(=O)c1c(-c2ccc(F)cc2)oc2cc(N(C(C)C)S(C)(=O)=O)c(OC(C)C)cc12,Huh7,-,<1 µM
C=CC1CC1(NC(=O)[C@@H]1C[C@@H](OC(=O)Nc2ccccc2C(=O)OC)CN1C(=O)[C@@H](NC(=O)OC(C)(C)C)C(C)(C)C)C(=O)NS(=O)(=O)C1CC1,Huh7,1b,<0.1 µM
O=C(O)c1ccc2c(C3CCCCC3)c3n(c2c1)CC(=O)N3Cc1ccccc1,Huh7,-,>10 µM
CC(C)S(=O)(=O)NC(=O)c1c(-c2ccc[nH]c2=O)c2c3occc3ccc2n1Cc1cc(F)ccc1F,-,-,<0.5 µM
CNC(=O)c1c(-c2ccccc2)oc2ccc(C(C)C)cc12,Huh7,-,<10 µM
NCc1cccc(Cn2c(C(=O)O)c(-c3ccc[nH]c3=O)c3c4occc4c(F)cc32)c1,-,-,<0.5 µM
COC(=O)c1ccc2c(C3CCCCC3)c3n(c2c1)CC(C(=O)O)Cc1ccccc1-3,Huh7,-,>10 µM
CNC(=O)c1c(-c2ccc(F)cc2)oc2cc(C(C)(C)NS(C)(=O)=O)c(OC)cc12,Huh7,-,<10 µM
O=C(O)/C=C/c1ccc(NC(=O)C2(NC(=O)c3ccc4c(c3)nc(-c3ccoc3)n4C3CCCCC3)CCC2)cc1,-,1b M423T,2.4 µM
NC(=O)c1ccc2c(C3CCCCC3)c3n(c2c1)CCCc1ncccc1-3,Huh7,-,1–10 µM
O=C(O)c1c(-c2ccc[nH]c2=O)c2c3ncsc3ccc2n1Cc1ccc(F)cc1F,-,-,>1.5 µM
CNC(=O)c1c(-c2ccc(F)cc2)oc2cc(N(Cc3c(C)noc3C)S(C)(=O)=O)c(OC(C)C)cc12,Huh7,-,<10 µM
CS(=O)(=O)NC(=O)c1c(-c2ccc[nH]c2=O)c2c3c(ccc2n1Cc1ccccc1F)OCCO3,-,-,<1 µM
CN1C(=O)Cn2c(c(C3CCCCC3)c3ccc(C(=O)NS(=O)(=O)N(C)C)cc32)-c2ccccc21,Huh7,-,0.01–1 µM
C=CC1CC1(NC(=O)[C@@H]1C[C@@H](OC(=O)NCc2ccccc2Cl)CN1C(=O)[C@@H](NC(=O)OC(C)(C)C)C(C)(C)C)C(=O)NS(=O)(=O)C1CC1,Huh7,1b,1–10 µM
C=C[C@H]1C[C@@]1(NC(=O)[C@@H]1C[C@@H](Oc2cc(-c3ccccc3)nc3cc(OC)ccc23)CN1C(=O)[C@@H](NC(=O)OC(C)(C)C)C(C)(C)C)C(=O)NS(=O)(=O)C1(C=C(C)C)CC1,Huh7,1b,0.05–0.5 µM
CCS(=O)(=O)NC(=O)c1c(-c2ccc[nH]c2=O)c2c3ccccc3ccc2n1Cc1ccnc(N)c1,-,-,1–10 µM
C=CC1C[C@@]1(NC(=O)[C@@H]1C[C@@H](Oc2cc(-c3ccccc3)nc3cc(OC)ccc23)CN1C(=O)[C@@H](NC(=O)CCOC)C(C)(C)C)C(=O)NS(=O)(=O)C1(Cc2ccccc2)CC1,Huh7,1b,0.05–0.5 µM
CS(=O)(=O)NC(=O)c1c(-c2ccc[nH]c2=O)c2c3ccoc3ccc2n1Cc1ccccc1F,-,-,>1.5 µM
CNC(=O)c1c(-c2ccc(F)cc2)oc2cc(NCCOC)c(OC(C)C)cc12,Huh7,-,<1 µM
CS(=O)(=O)NC(=O)c1c(-c2ccc[nH]c2=O)c2c3occc3c(F)cc2n1Cc1ccnc(N)c1,-,-,<0.5 µM
C=CC1CC1(NC(=O)[C@@H]1C[C@@H](OC(=O)Nc2cccc(Cl)c2Cl)CN1C(=O)[C@@H](NC(=O)OC(C)(C)C)C(C)(C)C)C(=O)NS(=O)(=O)C1CC1,Huh7,1b,0.1–1 µM
CN(C)S(=O)(=O)NC(=O)c1ccc2c(C3CCCCC3)c3n(c2c1)C[C@@H](C(=O)N1CCC(N2CCCC2)CC1)Cc1ccccc1-3,Huh7,-,0.01–1 µM
C=C[C@H]1C[C@@]1(NC(=O)[C@@H]1C[C@@H](Oc2cc(-c3ccccc3)nc3cc(OC)ccc23)CN1C(=O)[C@@H](NC(=O)OCC1CCOCC1)C(C)(C)C)C(=O)NS(=O)(=O)C1(Cc2ccccc2)CC1,Huh7,1b,0.05–0.5 µM
CN(C)S(=O)(=O)NC(=O)c1ccc2c(C3CCCCC3)c3n(c2c1)CC(O)Cc1ncccc1-3,Huh7,-,0.01–1 µM
C=C[C@H]1C[C@@]1(NC(=O)[C@@H]1C[C@@H](Oc2cc(-c3ccccc3)nc3cc(OC)ccc23)CN1C(=O)[C@@H](NC(=O)OC(C)(C)C)C(C)(C)C)C(=O)NS(=O)(=O)C1(Cc2ccccc2F)CC1,Huh7,1b,0.05–0.5 µM
C=CC1CC1(NC(=O)[C@@H]1C[C@@H](OC(=O)[n+]2cccc(C(C)=O)c2)CN1C(=O)[C@@H](NC(=O)OC(C)(C)C)C(C)(C)C)C(=O)NS(=O)(=O)C1CC1,Huh7,1b,>10 µM
C=CC1C[C@@]1(NC(=O)[C@@H]1C[C@@H](Oc2cc(-c3ccccc3)nc3cc(OC)ccc23)CN1C(=O)[C@@H](NC(=O)CC(C)(C)C)C(C)(C)C)C(=O)NS(=O)(=O)C1(Cc2ccccc2)CC1,Huh7,1b,0.05–0.5 µM
O=C(O)c1c(-c2ccccc2F)c2c3occc3c(F)cc2n1Cc1cc2ccccc2nc1Cl,-,-,<0.5 µM
CNC(=O)c1c(-c2ccc(F)cc2)oc2cc(N(C)S(C)(=O)=O)c(OCCn3cccn3)cc12,Huh7,-,<1 µM
CS(=O)(=O)NC(=O)c1c(-c2ccc[nH]c2=O)c2c3sccc3ccc2n1Cc1ccc(F)cc1F,-,-,>1.5 µM
C=CC1CC1(NC(=O)[C@@H]1C[C@@H](OC(=O)Nc2sccc2C(=O)OC)CN1C(=O)[C@@H](NC(=O)OC(C)(C)C)C(C)(C)C)C(=O)NS(=O)(=O)C1CC1,Huh7,1b,0.1–1 µM
C=CC1CC1(NC(=O)[C@@H]1C[C@@H](Oc2cc(-c3ccccc3)nc3cc(OC)ccc23)CN1C(=O)[C@@H](NC(=O)OC(C)(C)C)C(C)(C)C)C(=O)NS(=O)(=O)C1(Br)CC1,Huh7,1b,<0.05 µM